The values below come from PubChem BioAssay AID1986 (Sanford-Burnham Center for Chemical Genomics, 2009).

Only a part is listed here, and it is no random draw. Activity calls are given as the source filed them. Cut-off read from the data, not from the text of the source: active = inhibition mostly above about 52% (no sharp cut-off); inactive = mostly below about 76%.

The nature of the experiment: inhibitors of HIV fusion peptide binding, primary screen, biochemical, uHTS, fluorescence dequenching (AID 1986). Conditions: HIV Env-mediated cell-cell fusion, fluorescence reporter; at 20 µM; stronger effect = higher value.
For `COc1ccc(C(=O)NCC2(N3CCCCC3)CCCCC2)c(OC)c1OC`, the inhibition was inactive: 0.1%.

Turning to `CC(C)(C)OC(=O)N1CCC(N(C(=O)c2ccccc2)c2ccc(F)cc2)CC1`, the inhibition is inactive: -1.3%.

Consider `COc1ccc(C(=O)NCC2(N3CCCCC3)CCCCC2)cc1`, for which the inhibition is inactive: -0.3%.

For the compound `O=C(NCC1(N2CCCCC2)CCCCC1)c1ccc(=O)[nH]c1`, the inhibition is inactive: -1.4%.

On to `CSc1ccccc1C(=O)NCC1(N2CCCCC2)CCCCC1`, for which the inhibition is inactive: -1.4%.

Turning to `Cc1cc(C)cc(N(C(=O)c2ccccc2)C2CCN(C(=O)OC(C)(C)C)CC2)c1`, the inhibition was inactive: 1.4%.

Turning to `O=C(NCC1(N2CCOCC2)CCCCC1)c1cc2ccccc2o1`, the inhibition is inactive: 3.5%.

For `N#CC1(Nc2ccccc2)CCN(Cc2ccccc2)CC1`, the inhibition was inactive: 12.1%.

For `O=C(OC1CN2CCC1CC2)C1c2ccccc2Oc2ccccc21` (centres undefined), the inhibition is inactive: -1.3%.

On to `CCOC(=O)N1CCC(Nc2ccc(OC)cc2)CC1`, for which the inhibition is inactive: 1.2%.

Take `CCOc1ccc(C)cc1CN(CCCl)CCCl`: the inhibition was inactive: 1.6%.

Turning to `CCOC(=O)N1CCC(Nc2ccc(F)cc2)CC1`, the inhibition is inactive: -2.2%.

Take `COc1ccc(NC2CCN(CCc3ccccc3)CC2)c(OC)c1`: the inhibition is inactive: 1.2%.

Regarding `O=C(NCC1(N2CCCCC2)CCCCC1)c1ccc(F)cc1`, the inhibition is inactive: 2.1%.

Turning to `Cc1ccc(OCC(C)C)c(CN(CCCl)CCCl)c1`, the inhibition is inactive: -0.3%.

Take `CCOC(=O)N1CCC(Nc2cccc(C)c2)CC1`: the inhibition was inactive: 0.9%.

Take `COc1cc(C(=O)NCC2(N(C)C)CCCCC2)ccc1OC(F)F`: the inhibition is inactive: -0.1%.

Take `O=C(NCC1(N2CCCCC2)CCCCC1)c1ccc(OC(F)F)cc1`: the inhibition is inactive: -0.8%.

In the case of `N#CC1(Nc2ccccc2)CCN(CCc2ccccc2)CC1`, the inhibition was inactive: -2.3%.

As for `CCN1CCC(Nc2ccc(Cl)cc2)CC1`, the inhibition was inactive: 1.9%.

On to `O=C(NCC1(N2CCCCC2)CCCCC1)c1cccc([N+](=O)[O-])c1`, for which the inhibition was inactive: 0.2%.

Consider `O=C(NCC1(N2CCCCC2)CCCCC1)c1cccc(C(F)(F)F)c1`, for which the inhibition is inactive: 1.3%.

As for `O=C(NCC1(N2CCOCC2)CCCCC1)c1cc(=O)[nH]c2ccccc12`, the inhibition was inactive: -1.3%.

Turning to `COc1cc(C(=O)NCC2(N3CCCCC3)CCCCC2)ccc1OC(F)F`, the inhibition was inactive: -0.5%.

Take `COc1ccc(NC2CCN(C(=O)OC(C)(C)C)CC2)cc1`: the inhibition is inactive: -3.3%.

For the compound `CN1CCN(CCOC(=O)C(O)(c2ccccc2)c2ccccc2)CC1`, the inhibition was inactive: 4.8%.

As for `CC(C)c1ccc(NC2CCN(C(=O)OC(C)(C)C)CC2)cc1`, the inhibition was inactive: -3.4%.

Regarding `CN(C)c1cccc(C(=O)NCC2(N3CCCCC3)CCCCC2)c1`, the inhibition is inactive: 0.1%.

`COc1ccc(CN(CCCl)CCCl)cc1Cl`: the inhibition is inactive: -1.1%.

`COc1cc(OC)c(C(=O)NCC2(N(C)C)CCCCC2)cc1OC`: the inhibition was inactive: -0.2%.

Regarding `CCCOc1ccc(C(=O)NCC2(N(C)C)CCCCC2)cc1OC`, the inhibition is inactive: -0.8%.

On to `COc1ccc(C(=O)NCC2(N3CCOCC3)CCCCC2)cc1OC`, for which the inhibition is inactive: 2.8%.

For `CCOC(=O)N1CCC(Nc2ccc(C)cc2)CC1`, the inhibition was inactive: -1%.

Consider `N/C(=N\O)c1c(N)no[n+]1[O-]`, for which the inhibition is inactive: -1.5%.

Turning to `O=C(OC1CN2CCC1CC2)C1c2ccccc2C=Cc2ccccc21` (centres undefined), the inhibition is inactive: 2.2%.

On to `N#Cc1ccc(C(=O)NCC2(N3CCCCC3)CCCCC2)cc1`, for which the inhibition is inactive: -0.2%.

Take `CC(C)(C)OC(=O)N1CCC(N(C(=O)c2ccccc2)c2ccc(Cl)cc2)CC1`: the inhibition was inactive: 1.9%.

Turning to `CN(C)C1(CNC(=O)c2cccc(C#N)c2)CCCCC1`, the inhibition is inactive: -1.4%.

Regarding `CCCN1CCC(Nc2cc(OC)cc(OC)c2)CC1`, the inhibition was inactive: 2.8%.

Regarding `c1ccc(CN2CCC(Nc3ccccc3)CC2)cc1`, the inhibition is inactive: -3.4%.

Regarding `COc1cc(OC)cc(C(=O)NCC2(N3CCCCC3)CCCCC2)c1`, the inhibition was inactive: -1.9%.

As to `Fc1ccccc1NC1CCN(Cc2ccccc2)CC1`, the inhibition is inactive: 16.3%.

As to `CCN1CCC(Nc2cccc(F)c2)CC1`, the inhibition is inactive: 2.5%.

Regarding `CN(C)c1ccc(C(=O)NCC2(N3CCCCC3)CCCCC2)cc1`, the inhibition was inactive: 0.4%.

As to `CN1CCC(Nc2ccc(F)c(Cl)c2)CC1`, the inhibition is inactive: 0.2%.

As for `CCOc1ncccc1C(=O)NCC1(N2CCOCC2)CCCCC1`, the inhibition was inactive: 1.6%.

With `O=C(O)C1(Nc2ccccc2)CCN(Cc2ccccc2)CC1`, the inhibition was inactive: 0.7%.

In the case of `CC(C)(C)OC(=O)N1CCC(Nc2ccccc2)CC1`, the inhibition is inactive: -1.9%.

Regarding `CCCOc1ccc(C(=O)NCC2(N(C)C)CCCCC2)cc1`, the inhibition is inactive: 0.9%.

In the case of `COc1cccc(C(=O)N(c2cc(C)cc(C)c2)C2CCN(C(=O)OC(C)(C)C)CC2)c1`, the inhibition was inactive: -0.1%.

Regarding `COc1cc(OC)cc(C(=O)NCC2(N3CCOCC3)CCCCC2)c1`, the inhibition is inactive: 1.2%.

For `CCC(CO)(C(=O)OC1CN2CCC1CC2)c1ccccc1` (centres undefined), the inhibition was inactive: -2.8%.

On to `CN1CCC(Nc2ccc(Cl)cc2)CC1`, for which the inhibition is inactive: 1.7%.

`CCCOc1ccc(C)cc1CN(CCCl)CCCl`: the inhibition is inactive: 1%.
